The nature of this data set: general procedure: Fmoc solid-phase peptide synthesis; Fmoc-protected Rink amide MBHA polystyrene resin (0.71 mmol/g loading); HCTU/DIPEA. Particulars: whole synthesis; for final HPLC purity: Analytical HPLC, HPLC/MS; for isolated yield: overall.

With “(2-(2-oxobenzo[cd]indol-1(2H)-yl)-CH2-CO-NH-PKIIQSVGI-NH2”, the “final HPLC purity” value was 97% and the isolated yield turned out to be 18%. Further, the isolated mass (scale 0.11 mmol) came to 18 mg.
On to “(Ph-CH2)2(Me)N^+-(CH2)2-O-(CH2)2-O-CH2-CO-NH-PKIIQSVGI-NH2 I^−”, for which the “final HPLC purity” value is 98% and the isolated yield is 8%. For the same substance, where the note is “scale 0.073 mmol”, the isolated mass is 7.9 mg.
As to “(Ph-CH2)2N-(CH2)2-O-(CH2)2-O-CH2-CO-NH-PKIIQSVGI-NH2”, the “final HPLC purity” value was found to be 95%. The substance also had an isolated yield (run 1) of 9%. The substance also displayed an isolated yield (run 2) of 21%. The substance further came in with an isolated mass (scale 0.03 mmol) of 3.2 mg. Further, the isolated mass (scale 0.073 mmol) turned out to be 20 mg.
As for “(Ph-CH2)(Me)2N^+-(CH2)2-O-(CH2)2-O-CH2-CO-NH-PKIIQSVGI-NH2 I^−”, the “final HPLC purity” value is 99% and the isolated yield is listed as 25%. Under “scale 0.073 mmol”, this substance came in with an isolated mass of 22 mg.
For the substance “Acridine-CH2-CO-NH-(CH2)2-O-(CH2)2-O-CH2-CO-NH-PKIIQSVGI-NH2”, the “final HPLC purity” value worked out at 98% and the isolated yield is 10%. Where the note is “scale 0.06 mmol”, this substance yielded an isolated mass of 6.2 mg.
Take “Adamantyl-CH2-CO-NH-(CH2)2-O-(CH2)2-O-CH2-CO-NH-PKIIQSVGI-NH2”: the “final HPLC purity” value is recorded as 95% and the isolated yield is on record as 7%. Under “scale 0.06 mmol”, this substance yielded an isolated mass of 4.7 mg.
On to “Biphenyl-CH2-CO-NH-(CH2)2-O-(CH2)2-O-CH2-CO-NH-PKIIQSVGI-NH2”, for which the “final HPLC purity” value came to 97% and the isolated yield turned out to be 42%. The substance further displayed an isolated mass (scale 0.07 mmol) of 107.7 mg.
Taken in the same sequence, the figures for “CH3-CH2-CO-NH-(CH2)2-O-(CH2)2-O-CH2-CO-NH-PKIIQSVGI-NH2” were 98%, 12% and 14.4 mg.
As for “Naphthyl-CH2-CO-NH-(CH2)2-O-(CH2)2-O-CH2-CO-NH-PKIIQSVGI-NH2”, the “final HPLC purity” value stood at 96% and the isolated yield is given as 26%. The substance further returned an isolated mass (scale 0.07 mmol) of 22.4 mg.
On to Ph-CH2-CO-NH-(CH2)2-CO-NH-PKIIQSVGI-NH2, for which the “final HPLC purity” value was 97% and the isolated yield is given as 27%. The isolated mass (scale 0.11 mmol) was found to be 37 mg.
Taken in the same sequence, the figures for “Ph-CH2-CO-NH-(CH2)2-O-(CH2)2-O-CH2-CO-NH-PKIIQSVGI-NH2” were 99%, 39% and 156.0 mg.
Regarding “Ph-CH2-CO-NH-(CH2)2-O-CH2-CO-NH-PKIIQSVGI-NH2”, the “final HPLC purity” value came to 87% and the isolated yield is 25%. This substance also displayed an isolated mass (scale 0.12 mmol) of 35 mg.
Take Ph-CH2-CO-NH-PKIIQSVGI-NH2: the “final HPLC purity” value turned out to be 92% and the isolated yield was determined as 7%. This substance displayed an isolated mass (scale 0.09 mmol) of 7.16 mg.
For “Ph-CH2-NH-(CH2)2-O-(CH2)2-O-CH2-CO-NH-PKIIQSVGI-NH2”, the “final HPLC purity” value was found to be 98% and the isolated yield is reported as 32%. Further, the isolated mass (scale 0.03 mmol) turned out to be 10.4 mg.

Source of the values: publication PMC8308777 (Pharmaceuticals, 2021).
